What is called EC50 is the concentration giving half of the maximal effect.

In this assay the test system is Influenza A virus. The assay is described as follows: Antiviral activity against Influenza A virus (A/NWS/G70C(H1N9)) infected in MDCK cells assessed as reduction in plaque formation measured after 3 days post infection by neutral red staining-based assay.
Turning to `CC(=O)N[C@@H]1[C@@H](O)[C@@H](F)[C@](F)(C(=O)O)O[C@H]1C[C@H](O)CO`, the EC50 was determined as 10 µM. The figure for `CC(=O)N[C@@H]1[C@@H](O)[C@@H](F)[C@](F)(C(=O)O)O[C@H]1[C@H](O)[C@@H](C)O` is 100 µM; for `CC(=O)N[C@@H]1C[C@@H](F)[C@](F)(C(=O)O)O[C@H]1[C@H](O)[C@H](O)CO` it is 1 to 10 µM.

`CC(=O)N[C@@H]1[C@@H](O)[C@@H](F)[C@](F)(C(=O)O)O[C@H]1[C@H](O)CCO`: the EC50 came to 100 µM. As for `CC(=O)N[C@@H]1[C@@H](O)[C@@H](F)[C@](F)(C(=O)O)O[C@H]1[C@H](O)[C@H](O)CO`, the figure is 1 to 10 µM.

Values taken from ChEMBL document CHEMBL4118102 (J Med Chem, 2018).
